In US12115182B2, “Adenosine A2A agonists for the treatment of cytokine storm syndrome” (priority 2021, dated 2024):

System: SARS CoV-2
Assay: Apadenoson in K18-hACE2 mouse model of COVID-19: survival, weight, clinical scores
Conditions: day 12

CCNC(=O)[C@H]1O[C@@H](n2cnc3c(N)nc(C#CC[C@H]4CC[C@H](C(=O)OC)CC4)nc32)[C@H](O)[C@@H]1O [Apadenoson]
mice survived to the end of the experiment (drug group: apadenoson 18 hours before viral challenge, 4/17): 24%
mice survived to the end of the experiment (drug with delay group: apadenoson five hours post viral challenge, 5/17): 30%
